# In patent US9206412B2, “Thioxothiazolidine inhibitors” (Colorado State University Research Foundation, priority 2012, dated 2015):
# Tested on: dengue type 2 virus subgenomic replicon (BHK-pD2hRucPac)
# Experiment: Antiviral (replicon) assay, Renilla luciferase
# Assay type: cell-based
# Details: for Replicon Assay_TI: Table 2-1; for Replicon Therapeutic Index (TI): CC50/EC50
SMILES,Replicon Assay_TI,Replicon Therapeutic Index (TI),Replicon Therapeutic Index (TI) (listed as BG323)
CC(C)c1ccc(/C=C2\SC(=S)N(CC(=O)O)C2=O)cc1 [BG182],1.26,–,–
COc1ccccc1C=C1SC(=S)N(C(Cc2ccccc2)C(=O)O)C1=O (racemic) [BG101],1.1,–,–
Cc1cccc(N2C(=O)/C(=C/c3ccc(C(=O)O)cc3)SC2=S)c1C [BG128],1.02,–,–
O=C(O)c1ccccc1/C=C1\SC(=S)N(c2cccc(C(F)(F)F)c2)C1=O [BG129],0.75,–,–
O=C(O)C(Cc1ccccc1)N1C(=O)C(=Cc2ccccc2Cl)SC1=S (racemic) [BG135],1.12,–,–
COc1ccc2nc(N3CCCCC3)c(C=C3SC(=S)NC3=O)cc2c1 [BG168],1.17,–,–
O=C(CCN1C(=O)/C(=C/c2ccccc2Cl)SC1=S)Nc1ccccc1C(=O)O [BG289],0.9,–,–
O=C(O)C(Cc1ccccc1)N1C(=O)C(=CC=Cc2ccccc2)SC1=S (stereo not drawn) [BG138],1.03,–,–
O=C(CN1C(=O)C(=Cc2ccccc2Cl)SC1=S)Nc1cccc(C(=O)O)c1 [BG123],1.43,–,–
O=C(CN1C(=O)/C(=C/c2ccccc2F)SC1=S)Nc1ccccc1C(=O)O [BG132],0.82,–,–
CC(C)C(C(=O)O)N1C(=O)/C(=C/c2ccccc2Cl)SC1=S (stereo not drawn) [BG134],1.1,–,–
O=C(CCN1C(=O)C(=Cc2ccc(Cl)cc2)SC1=S)Nc1ccccc1C(=O)O [BG120],1.49,–,–
O=C1NC(=O)C(=Cc2ccc(Br)cc2)S1 [BG143],1.22,–,–
COc1ccc(N2C(=O)/C(=C/c3cc([N+](=O)[O-])cc(OC)c3O)SC2=S)cc1 [BG140],1.74,–,–
CC(C)(C)c1ccc(/C=C2\SC(=S)N(CCC(=O)O)C2=O)cc1 [BG295],3.8,–,–
C=CCOc1ccc(Cl)cc1/C=C1\SC(=S)NC1=O [BG114],1.16,–,–
CCOc1ccc(N2C(=O)C(=Cc3ccccc3C(=O)O)SC2=S)cc1 [BG126],1.02,–,–
CC(C)(C)c1ccc(/C=C2\SC(=S)N(CCC(=O)O)C2=O)cc1 [BG184],1.3,–,–
O=C1NC(=S)SC1=Cc1ccccc1OS(=O)(=O)c1ccc([N+](=O)[O-])cc1 [BG127],0.7,–,–
CC(C)N1C(=O)SC(=Cc2ccccc2OCc2ccc(C(=O)O)cc2)C1=O [BG166],1.2,–,–
Cc1cc(C)cc(-n2c(C)cc(/C=C3\SC(=O)NC3=O)c2C)c1 [BG172],1.28,–,–
O=C(CN1C(=O)/C(=C/c2ccccc2F)SC1=S)Nc1cccc(C(=O)O)c1 [BG131],1.56,–,–
CN1C(=O)S/C(=C\c2ccc(-c3ccc(C(=O)O)c(Cl)c3)o2)C1=O [BG175],1.39,–,–
CC(C(=O)O)N1C(=O)C(=Cc2ccc(Cl)cc2Cl)SC1=S (stereo not drawn) [BG133],0.87,–,–
O=C(CCCN1C(=O)/C(=C/c2ccc(F)cc2)SC1=S)Nc1cccc(C(=O)O)c1 [BG124],0.89,–,–

SMILES,Replicon Assay_TI,Replicon Therapeutic Index (TI),Replicon Therapeutic Index (TI) (listed as BG323)
"CC(C)(C)c1ccc(/C=C2/SC(=S)N(CCC(=O)O)C2=O)cc1 [BG-323, (E)-3-(5-(4-tert-butylbenzylidene)-4-oxo-2-thioxo-1,3-thiazolidin-3-yl)propanoic acid]",6.0,12 and 6,6.0
CC(=C1SC(=S)NC1=O)c1ccc(C)cc1 [BG137],1.21,–,–
O=C(CN1C(=O)S/C(=C\c2ccccc2F)C1=O)Nc1ccccc1C(=O)O [BG142],1.43,–,–
O=C(CCN1C(=O)C(=Cc2ccc(Cl)cc2)SC1=S)Nc1cccc(C(=O)O)c1 [BG121],1.2,–,–
O=C(CN1C(=O)C(=Cc2ccccc2Cl)SC1=S)Nc1ccc(C(=O)O)cc1 [BG119],1.36,–,–
COc1c(I)cc(I)cc1/C=C1\SC(=S)N(CC(=O)O)C1=O [BG308],2.8,–,–
CCc1ccc(C=C2SC(=S)N(CCC(=O)Nc3ccccc3C(=O)O)C2=O)cc1 [BG274],1,–,–
CCOc1cc(/C=C2\SC(=S)NC2=O)ccc1OS(=O)(=O)c1ccccc1[N+](=O)[O-] [BG169],1.15,–,–
CC(C)(C)c1ccc(CC2SC(=S)N(CCC(=O)O)C2=O)cc1 (racemic) [BG296],0.6281,–,–
O=C(O)CCN1C(=O)/C(=C/c2cccc(Cl)c2Cl)SC1=S [BG-324],1.43,1.4,–
O=C(O)CCN1C(=O)/C(=C/c2ccc(Cl)cc2Cl)SC1=S [BG-330],1.25,1.4,–
O=C1NC(=S)SC1=Cc1cccc(Cl)c1Cl [BG333],1.25,–,–
CC(C)(C)c1ccc(C=C2SC(=S)N(CCC(=O)NS(C)(=O)=O)C2=O)cc1 [BG297],1.1,–,–
O=C(CN1C(=O)/C(=C/c2ccccc2Cl)SC1=S)Nc1ccccc1C(=O)O [BG100],1.34,–,–
O=C(O)CCN1C(=O)C(=Cc2ccc(-c3ccccc3[N+](=O)[O-])o2)SC1=S [BG139],1.11,–,–
O=C(CCN1C(=O)/C(=C/c2cccc(Br)c2)SC1=S)Nc1ccccc1C(=O)O [BG291],0.9,–,–
O=C(O)CCN1C(=O)/C(=C/c2ccc(-c3cccc(Cl)c3)o2)SC1=S [BG188],1,–,–
CC(C)(C)c1cc(C=C2SC(=S)NC2=O)cc(C(C)(C)C)c1O [BG179],1.35,–,–
O=C(O)CCN1C(=O)/C(=C/c2ccc(-c3ccc(Cl)cc3Cl)o2)SC1=S [BG177],1 and 1.2,–,–
COc1cc(/C=C2\SC(=O)N(Cc3ccc(F)cc3)C2=O)c(Br)cc1OCC(=O)O [BG163],1.54,–,–
CCN(CC)c1ccc(N2C(=O)/C(=C/c3ccc(C(=O)O)cc3)SC2=S)cc1 [BG125],0.6,–,–
O=C(CCN1C(=O)C(=Cc2ccc(Cl)cc2)SC1=S)Nc1ccc(C(=O)O)cc1 [BG122],1.41,–,–
Cc1ccc(N2C(=O)/C(=C/c3ccccc3C(=O)O)SC2=S)c(C)c1 [BG130],0.95,–,–
COc1cc(C=C2SC(=S)NC2=O)ccc1OS(=O)(=O)c1ccccc1[N+](=O)[O-] [BG141],1.14,–,–
Cc1cccc(/C=C2\SC(=S)N(CN3CCCCC3)C2=O)c1 [BG136],1.21,–,–

# Values joined by “and” are separate entries in the source; they are usually repeats but may differ in a detail not shown here. Identical values can stand only once.
